The target of this experiment is T1, recombinant full-length calnexin (CNX), purified by the CL7/Im7 system (UniProt P27824 21-592).
T1 sequence (looked up): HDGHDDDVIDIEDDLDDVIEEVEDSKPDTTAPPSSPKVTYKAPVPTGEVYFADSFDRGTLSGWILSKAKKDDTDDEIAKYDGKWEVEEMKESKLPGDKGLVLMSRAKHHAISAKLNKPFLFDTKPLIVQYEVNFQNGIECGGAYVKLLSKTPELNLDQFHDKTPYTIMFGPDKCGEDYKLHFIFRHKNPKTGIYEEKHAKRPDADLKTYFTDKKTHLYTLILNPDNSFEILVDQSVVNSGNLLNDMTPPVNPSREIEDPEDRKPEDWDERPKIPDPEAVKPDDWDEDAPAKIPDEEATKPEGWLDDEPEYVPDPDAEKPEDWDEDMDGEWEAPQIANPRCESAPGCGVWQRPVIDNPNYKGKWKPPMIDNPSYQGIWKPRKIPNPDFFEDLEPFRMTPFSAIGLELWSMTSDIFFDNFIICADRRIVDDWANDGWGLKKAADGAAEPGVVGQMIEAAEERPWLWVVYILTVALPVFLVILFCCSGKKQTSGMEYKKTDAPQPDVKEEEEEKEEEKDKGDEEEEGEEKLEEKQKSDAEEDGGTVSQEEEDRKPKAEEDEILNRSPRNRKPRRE
Put plainly: SPR. Background: Surface plasmon resonance follows binding to a sensor surface in real time, without labels.

B1: myristoylated NefSF2 protein (natural protein)
chain: not shown
modifications: myristoylated
For B1, the equilibrium dissociation constant (Kd) (usually the constant that tells how readily two partners part at equilibrium) was found to be 89.1 nM; the koff (in general, the rate constant with which the complex falls apart) worked out at 0.0119 s⁻¹; the kon (commonly the second-order rate constant of association) stood at 134000 M⁻¹ s⁻¹.

For the origin of these results see publication PMC5040351 (Arteriosclerosis, thrombosis, and vascular biology, 2016).
